Laboratory results as given in patent publication US20240270828A1 (UAB RESEARCH FOUNDATION, published 2024).

How the values were obtained:
[1] = biological target: SARS-CoV-2 Spike protein D614G on pseudotyped virus (SARS-CoV-2, UniProt P0DTC2 14-1273); test: cell-based or functional assay
[2] = biological target: SARS-CoV-2 Spike protein Beta on pseudotyped virus (SARS-CoV-2 Beta, UniProt P0DTC2 14-1273); test: cell-based or functional assay

Binder | Neutralization IC50 (µg/ml), PsV D614G [1] [µg/mL] | Neutralization IC50 (µg/ml), PsV Beta [2] [µg/mL]
1235C10 (antibody, V domains shown, Recombinant human IgG1) VH: EVQLVESGGGLVQPGRSLRLSCTASGFTFGDHSMSWVRQAPGKGLEWVGFIRSKAYGGTTEYAASVKGRFTISRDDSKSIAYLQMNSLKIEDTAVYYCTRGLTGLDYWGQGMLVTVSS VL: DIVLTQSPDSLAVSLGERATINCKSSQSLLYSSNNKNYLAWYQQKPRQPPKLLIYWASTRESGVPDRFSGSGSGTDFTLTISSLQAEDVAVYYCQQFYNTPPTFGQGTKVEIK | 8.75 | 8.81
1242F4 (antibody, V domains shown, Recombinant human IgG1) VH: EVQLVQSGAEVKKPGTSVKVSCKASGNTVADYYMHWVRQAPRQGLEWVGLINPSGSGTAYAQNFQGRVTLTRDTSTSTLYMELGSLGSEDTAIYYCARMDSSGTYDVWGQGTLVTVSS VL: EIVLTQSPGTLSLSPGERATLSCRASQSIRSGYLAWYQQKPGQAPRLLIRGASVKATGIPDRFSGSGSGTDFTLTISRLEPEDFVVYYCQHFASSPPRYTFGQGTKLEIK | 9.23 | 17
1250E10 (antibody, V domains shown, Recombinant human IgG1) VH: EVQLVQSGAEVKKPGASVKFSCKASGFRVDGSYMHWVRQAPRGGLEWMGLINPSGSGTAYAQIFQGRVTLTRDTSTSTLYMELGSLGSEDTAMYYCARMDRSGSYDLWGQGTLVIVSS VL: DIVLTQSPGNLSLSPGERATLSCRASESIRSAYIAWYQQKPGQAPRLLMRGASVRAAGIPDRFSGSGSGTDYALTISRLEPEDFAVYYCQHFASSPPRYTFGQGTKLEIK | 3.64 | 4.17
1246C2 (antibody, V domains shown) VH: QVQLVQSGGGLVKPGGSLRLSCAASGFTFKTHNMIWVRQAPGKVLEWVSSISGSSSYRYYGDSMKGRLTISRDNAKNSLYLEMNSLRAEDTAVYYCARDKGVGPTMVWYFDLWGRGTLVTVSS VL: EIVLTQSPATLSLSPGDRATLSCRASQSLSISLAWYQQKPGQAPRLLIYDASIRATGVPPRFSGSGSGTDFTLTISSLEPEDFAVYYCQQWSGWPPRLTFGGGTKVEIK | 2.98 | 7
1242G6 (antibody, V domains shown, Recombinant human IgG1) VH: QVQLVQSGGGVVQPGTSVRLSCAASGFTFSDHGMHWVRQAPGKGLEWVAVISFEGRNKFFADSVKGRSTISRDNSKNTVSMQVDNVRPEDTAVYYCAREHFDGSGSDYIGTRFFDYWGRGALVTVSS VL: DIQLTQSPSFLSASVGDRVTITCRASQGISHYLTWYQQKPGKAPKLLIYRTSTLQSGVPSRFSGSGSGTVFTLTISSLQPEDLATYYCQHLDNFPTITFGQGTRLDLK | 23.7 | 25.6
1212C2 (antibody, V domains shown) VH: QVQLVQSGAEVKKPGASVKVSCKASGYIFTDYFIHWVRQAPGQGLEWMGWINPNSGGTKYAQKFQGRVTMTRDTSISTVYMELSRLRSDDTAVHYCTRDLPLRTLYDSYGFDSWGQGTLVTVSS VL: LPVLTQPASVSGSPGQSITISCTGTSSDVGSYNLVSWYQQHPGKAPKLMIYDVSKRPSGVSNRFSGSKSGNTASLTISGLQAEDEADYYCCSYAGNSIVFFGGGTKLTVL | 0.003 | 0.003
1250D2 (antibody, V domains shown, Recombinant human IgG1) VH: QVQLVQSGAEVKKPGASMKVSCKASGFTFSDYYMHWVRQAPRQGLEWMGLINPSGSGTAYAQNFQGRVTLTRDTSTSTLYMEMGSLTSDDTAVYYCARMDSSGSYDHWGQGTLVTVSS VL: EIVLTQSPGTLSLSPGDRATLSCRASQTIRISYLAWYQQKPGQAPRLLVYGPSIRATGIPDRFSASGSGTDFTLTISRLEPEDFAVYYCQHYGSSPPRYTFGQGTKLEIK | 7.59 | 8.39
1242C6 (antibody, V domains shown, Recombinant human IgG1) VH: EVQLVQSGAEVKKPGASVKVSCKASGFTFSDYYMHWVRQAPRQGLEWMGLINPSGSGTAYAQNFQGRVTLTRDTSTSTLYMEMGSLTSDDTAVYYCARMDSSGSYDHWGQGTLVTVSS VL: DIVMTQSPGTLSLSPGDRATLSCRASQTIRISYLAWYQQKPGQAPRLLVYGPSIRATGIPDRFSASGSGTDFTLTISRLEPEDFAVYYCQHYGSSPPRYTFGQGTKLEIK | 8.41 | 11
